Compound potency records, mixed from different reports. Data source: NIAID ChemDB in PubChem.

All rows: toxicity to cultured cells; cell line: Huh7; endpoint: CC50

Blank or dashed fields: not listed here. Conditions beyond the fields shown may differ between rows. CCn is the concentration with n% toxicity to the cells.

| compound | method | result |
|---|---|---|
| O=C(/C=C/c1ccc(C(F)(F)F)cc1F)NO | MTS | 12 µM |
| O=C(O)c1c(-c2ccc(F)cc2)nc(NCc2nc3ccccc3[nH]2)[nH]c1=O | MTT | 647 µM |
| CN(C)CCN1C(=O)Cn2c(c(C3CCCCC3)c3sc(C(=O)O)cc32)-c2ccccc21 | - | >17.5 µM |
| CC(C)OC(=O)[C@H](C)N[P@](=O)(OC[C@H]1O[C@@](C#N)(c2ccc3c(N)ncnn23)[C@](C)(O)[C@@H]1OC(=O)C(C)C)Oc1ccccc1 | ATP | 67 µM |
| C[C@@]1(O)[C@H](O)[C@@H](CO)O[C@H]1n1ccc2c(N)ncnc21 | MTT | >100 µM |
| N#Cc1c(-c2ccccc2O)nc(SCc2nc3ccccc3[nH]2)[nH]c1=O | MTT | 311 µM |
| C[C@@]1(O)[C@H](O)[C@@H](CO)O[C@H]1n1cnc2c(N)ncnc21 | MTS | 66 µM |
| CC(=O)CC[C@H]1C(=O)N[C@@H](C(C)C)C(=O)N[C@@H](Cc2cccc(O)c2)C(=O)N2CCCC(N2)C(=O)O[C@H](/C(C)=C/C=C/C(=O)N2CCCCO2)C/C=C/C=C/[C@H](O)[C@H](C)[C@H]1O | MTT | >200 µM |
| C[C@@]1(O)[C@H](O)[C@@H](CO)O[C@H]1c1cnc2c(=O)[nH]c(N)nn12 | MTT | >100 µM |
| O=C(c1nn2c(C(F)(F)F)cc(C3CC3)cc2c1Cl)N1CCCC2(C1)OCCCO2 | ATP | >50 µM |
| CN(C)C(=O)Cn1c(-c2ccccc2)c(C2CCCCC2)c2sc(C(=O)O)cc21 | - | >72.5 µM |
| O=C(c1nn2c(C(F)(F)F)cc(C3CC3)cc2c1Cl)N1CCC2(CC1)OCC(c1ccccc1)CO2 | ATP | >50 µM |
| CC(C)(C)NC(=O)N[C@H](C(=O)N1C[C@H]2[C@@H]([C@H]1C(=O)NC(CC1CCC1)C(=O)C(N)=O)C2(C)C)C(C)(C)C | MTT | >70 µM |
| COCn1c(-c2ccccc2)c(C2CCCCC2)c2sc(C(=O)O)c(CN(C)Cc3ccccc3)c21 | - | >27.5 µM |
| C[C@@]1(O)[C@H](O)[C@@H](CO)O[C@H]1n1cnc2c(N)ncnc21 | MTS | 54 µM |
| CN(C)Cc1c(C(=O)O)sc2c(C3CCCCC3)c(-c3ccc(Cl)cc3)n(CC(=O)N3CCOCC3)c12 | - | >47.5 µM |
| CC1(C)COC2(CCN(C(=O)c3nn4c(C(F)(F)F)cc(C5CC5)cc4c3Cl)CC2)OC1 | ATP | >25 µM |
| N#Cc1c(-c2ccc(F)cc2)nc(NCc2nc3ccccc3[nH]2)[nH]c1=O | MTT | 643 µM |
| O=C(O)c1cc2c(s1)c(C1CCCCC1)c(-c1ccccc1)n2Cc1ccccc1 | - | >267.5 µM |
| O=C(O)c1c(-c2ccco2)nc(SCc2nc3ccccc3[nH]2)[nH]c1=O | MTT | 876 µM |
| COCn1c(-c2ccccc2)c(C2CCCCC2)c2sc(C(=O)O)cc21 | - | >147.5 µM |
| C[C@@]1(O)[C@H](O)[C@@H](CO)O[C@H]1c1ccc2c(N)ncnn12 | MTT | >100 µM |
| O=C(O)c1cc2c(s1)c(C1CCCCC1)c(-c1ccc(Oc3ccccc3)cc1)n2CC(=O)N1CCOCC1 | - | >65 µM |
| O=C(c1nn2c(C(F)(F)F)cc(C3CC3)cc2c1Cl)N1CCC2(OCC3(CC3)CO2)C(O)C1 | ATP | >50 µM |

For reference, 4 entries again:

compound | method | result
O=C(/C=C/c1ccc(C(F)(F)F)cc1F)NO | MTS | 12 µM
CC(C)(C)NC(=O)N[C@H](C(=O)N1C[C@H]2[C@@H]([C@H]1C(=O)NC(CC1CCC1)C(=O)C(N)=O)C2(C)C)C(C)(C)C | MTT | >70 µM
C[C@@]1(O)[C@H](O)[C@@H](CO)O[C@H]1c1cnc2c(=O)[nH]c(N)nn12 | MTT | >100 µM
CC(=O)CC[C@H]1C(=O)N[C@@H](C(C)C)C(=O)N[C@@H](Cc2cccc(O)c2)C(=O)N2CCCC(N2)C(=O)O[C@H](/C(C)=C/C=C/C(=O)N2CCCCO2)C/C=C/C=C/[C@H](O)[C@H](C)[C@H]1O | MTT | >200 µM